This is an account of results in publication PMC10764958.

For at least one entry, the source does not settle the construct or the ends of the probe.

Usually Kd stands for a measure of binding affinity in units of concentration.

This data set addresses poly-SUMOylated SARS2-NP WT (SARS-CoV-2) (UniProt P0DTC9). The data set is described as follows: MST. The settings on record: MST: PBS with 0.05% Tween, room temperature, recombinant protein, protein details: Flag, poly-His-SUMO3 conjugated.

On to “CACUCGCUAUGUCGAUAACAACUUCUGUGGCCCUGAUGGCUACCCUCUUGAGUGCAUUAAAGA [Cy5-RNA (SARS-CoV-2 RNA)]”, for which the Kd is 0.59 nM and the binding result is “binds”.
